Test results as given in patent publication US20100261751A1, “METHOD FOR D[…] OF THE TWO HUMAN IMMUNODEFICIENCY VIRUS (HIV) INTEGRASE ENZYMATIC […]” (priority 2007, published 2010).
pIC50: −log10 of the molar value.

Target: HIV integrase (Human immunodeficiency virus type 1 group M subtype B, UniProt P04585)
Test: 3dQ assay: HIV integrase 3′-end processing fluorescence in vitro assay
Assay type: biochemical
Settings: read-out: IC50s, 150 nM integrase, 100 nM LEDGF, 50 nM Q-probe, 2 hrs at 37° C.

## O=C(NCc1ccc(F)cc1)c1nc(N2CCCCS2(=O)=O)c2cccnc2c1O
  pIC50: 6.00
